Pooled drug test results. Numbers come from NIAID ChemDB, via PubChem.

All rows: growth or infection tests; organism: Mycobacterium smegmatis; endpoint: MIC

Blank or dashed fields: not listed here. Conditions beyond the fields shown may differ between rows.

structure | strain | method | result
CNCC1CCN(c2cc3c(cc2F)c(=O)c(C(=O)O)cn3C(C)(C)C)C1 | ATCC 19420 | - | 0.25 µg/mL
CCCCCCCCCCCCCCCC[N+](C)(C)CC | MC^2 155 (CCCP) | - | 1 µg/mL
CCN1CCN(c2nc3c(cc2F)c(=O)c(C(=O)O)cn3C2CC2)CC1 | ATCC 19420 | - | 0.25 µg/mL
CCc1cc(C(=O)O)c(=O)n2cc(F)c(N3CCC(N)C3)c(C)c12.Cl | ATCC114 | - | 0.1 µg/mL
CCCCc1cnc(C(=O)/C=C/c2ccc(Br)cc2)cn1 | CCM | absorbance | 125 µg/mL
Cc1c(N2CCC(C(C)N)C2)c(F)cn2c(=O)c(C(=O)O)cc(C3CC3)c12.Cl | ATCC114 | - | 0.01 µg/mL
CCCc1cnc(C(=O)/C=C/c2ccccc2Br)cn1 | CCM | absorbance | >500 µg/mL
CCCC(N)C1CCN(c2c(F)cn3c(=O)c(C(=O)O)cc(C4CC4)c3c2C)C1.Cl | ATCC114 | - | 0.01 µg/mL
COc1c(N2CCC(N)C2)c(F)cc2c(=O)c(C(=O)O)cn(C3CC3)c12 | ATCC 19420 | - | 0.06 µg/mL
O=c1c(-c2ccc(C(F)(F)F)cc2)c(/C=C/c2cn(-c3ccccc3)nc2-c2ccc(Br)cc2)nc2sccn12 | mc2155 | colony count | 69 µg/mL
Cc1c(N2C[C@@H]3C(N)[C@@H]3C2)c(F)cn2c(=O)c(C(=O)O)cc(C3CC3)c12.Cl | ATCC114 | - | 0.1 µg/mL
N#Cc1ccc(-c2c(/C=C/c3cn(-c4ccccc4)nc3-c3ccc(Br)cc3)nc3sccn3c2=O)cc1 | mc2155 | colony count | 74 µg/mL
Cc1c(N2CC[C@@H]([C@@H](C)N)C2)c(F)cn2c(=O)c(C(=O)O)cc(C3CC3)c12.Cl | ATCC114 | - | 0.002 µg/mL
COc1ccc(-c2nn(-c3ccccc3)cc2/C=C/c2nc3sccn3c(=O)c2-c2ccc(C(F)(F)F)cc2)cc1 | mc2155 | colony count | 62 µg/mL
CCCCCc1cnc(C(=O)/C=C/c2ccc(Br)cc2)cn1 | CCM | absorbance | >250 µg/mL
Cc1ccc(-c2nn(-c3ccccc3)cc2/C=C/c2nc3sccn3c(=O)c2-c2ccc(C(F)(F)F)cc2)cc1 | mc2155 | colony count | 87 µg/mL
COC[C@@H](N)[C@@H]1CCN(c2c(F)cn3c(=O)c(C(=O)O)cc(C4CC4)c3c2C)C1.Cl | ATCC114 | - | 0.2 µg/mL
NCC[C@H](O)C(=O)N[C@@H]1C[C@H](N)[C@@H](O[C@H]2O[C@H](CN)[C@@H](O)[C@H](O)[C@H]2O)[C@H](O)[C@H]1O[C@H]1O[C@H](CO)[C@@H](O)[C@H](N)[C@H]1O | A24185 | - | >128 µg/mL
CCn1cc(C(=O)O)c(=O)c2cc(F)c(N3CCC(N)C3)nc21 | ATCC 19420 | - | 1 µg/mL
CC(C)Cc1cnc(C(=O)/C=C/c2ccc(Cl)cc2)cn1 | CCM | absorbance | >125 µg/mL
Cc1c(N2CC[C@@H]([C@H](N)CO)C2)c(F)cn2c(=O)c(C(=O)O)cc(C3CC3)c12 | ATCC114 | - | 0.1 µg/mL
CC[n+]1c(-c2ccccc2)c2cc(N)ccc2c2ccc(N)cc21 | mc2155 | - | 8 µg/mL
O=C(/C=C/c1ccc(Br)cc1)c1cnccn1 | CCM | absorbance | 62.5 µg/mL
Cc1c(N2C[C@@H](N)[C@H](C(F)(F)F)C2)c(F)cn2c(=O)c(C(=O)O)cc(C3CC3)c12.Cl | ATCC114 | - | 0.2 µg/mL

2 of the rows above, restated:

structure	strain	method	result
CCCc1cnc(C(=O)/C=C/c2ccccc2Br)cn1	CCM	absorbance	>500 µg/mL
CC(C)Cc1cnc(C(=O)/C=C/c2ccc(Cl)cc2)cn1	CCM	absorbance	>125 µg/mL